Compound potency records, mixed from different reports. Data source: NIAID ChemDB in PubChem.

Common to all: toxicity to cultured cells; cells: BCBL-1; measure: CC50

CCn: concentration that lowers growth or viability of the cells by n%. An empty or dashed field is not shown. Neighbouring rows are from separate reports.

compound,read by,result
C=CCOc1nc(N)nc2c1ncn2/C=C1/C[C@@H]1CO,-,118 µM
O=C(NCc1ccc(Cl)cc1)c1cn2c(CCN3CCOCC3)cc3cc(CN4CCOCC4)cc(c1=O)c32,MTS,>17.9 µM
CCCCCOc1nc(N)nc2c1ncn2/C=C1/C[C@@H]1CO,-,109 µM
O=c1[nH]c(=O)n([C@H]2C[C@H](O)[C@@H](CO)O2)cc1/C=C/Cl,cell count,>70 µM
CCCCCCCCCCCCCCCCCCOC[C@H](COP(=O)(O)CO[C@H](CO)Cn1ccc(N)nc1=O)OCc1ccccc1,-,>1 µM
CCc1cn([C@H]2C[C@H](O)[C@@H](CO)O2)c(=O)[nH]c1=O,cell count,215 µM
CCCCCCCC/C=C\CCCCCCCOCCCOP1(=O)CO[C@@H](Cn2ccc(N)nc2=O)CO1,-,>0.9 µM
Nc1nc(OCC2CC2)c2ncn(/C=C3/C[C@@H]3CO)c2n1,-,130 µM
O[C@@H]1[C@H](O)[C@H](O)CO[C@H]1n1c(Br)nc2cc(Cl)c(Cl)cc21,-,>126 µM
O=c1[nH]c(=O)n([C@H]2C[C@H](O)[C@@H](CO)O2)cc1I,cell count,4 µM
Nc1ccn(C[C@H]2COP(=O)(O)CO2)c(=O)n1,-,>166 µM
CCCSc1nc(N)nc2c1ncn2/C=C1/C[C@@H]1CO,-,148 µM
Nc1ccn(C[C@@H](CO)OCP(=O)(O)O)c(=O)n1,-,>159 µM
CCCCCCCC/C=C\CCCCCCCOCCCOP(=O)(O)CO[C@H](CO)Cn1ccc(N)nc1=O,-,>1.5 µM

2 of the rows above, restated:

compound,read by,result
Nc1ccn(C[C@H]2COP(=O)(O)CO2)c(=O)n1,-,>166 µM
CCc1cn([C@H]2C[C@H](O)[C@@H](CO)O2)c(=O)[nH]c1=O,cell count,215 µM